Measured values from several laboratories, pooled; numbers as filed in NIAID ChemDB.

Common to all: growth or infection tests; agent: HIV-1; endpoint: inhibition

Blank or dashed fields: not listed here.

| compound | strain or isolate | mutations | cells | method | setting | dose | value |
|---|---|---|---|---|---|---|---|
| S=C(NCCc1ccccc1)N1CCCc2ccccc21 |  |  | MT-4 | cytopathic effect / XTT |  | 1 µg/mL | 0% |
| C[C@@H]1CN(C(=O)c2ccccc2)CCN1C(=O)C(=O)c1c[nH]c2ccc(F)cc12 |  |  | HeLa + HELA CD4+/CCR5 | luciferase |  | 10 µM | 69% |
| CC(=O)CCC(=O)NCCCOCCOCCCNC(=O)CNC(=O)[C@H](CS)NC(=O)[C@@H](NC(=O)[C@@H](NC(=O)[C@H](CO)NC(=O)[C@@H](N)CS)C(C)C)[C@@H](C)O | p13 |  | PBMC(PHA STIM.) + PBMC | p24 |  | 1.8 µM | 72% |
| CN1C(=O)[C@@H](Cc2ccccc2)NC1=S |  |  | MT-4 | cytopathic effect / XTT |  | 10 µg/mL | 24–34% |
| Cc1ccc(-c2ccc3c(c2)C=C(C(=O)Nc2ccc(C[N+](C)(C)C4CCOCC4)cc2)CCC3)cc1 | Du204 CLADE C |  | PBMC | p24 |  | 1 µM | 97.6% |
| Nc1ccccc1C(=O)N1CCN(C(=O)C(=O)c2c[nH]c3cccc(F)c23)CC1 |  |  | HeLa + HELA CD4+/CCR5 | luciferase |  | 10 µM | 84% |
| C=C(C)[C@@H]1CC[C@]2(C(=O)NCCCCCCCC(=O)N[C@@H](CC(C)C)[C@@H](O)CC(=O)O)CC[C@]3(C)[C@H](CC[C@@H]4[C@@]5(C)CC[C@H](O)C(C)(C)[C@@H]5CC[C@]43C)[C@@H]12 | LAI | GP41-K77R | HeLa P4 + HeLa | syncytia |  | 10 µM | >99% |
| S=C(NCCc1ccccc1)N1CCOCC1 |  |  | MT-4 | cytopathic effect / XTT |  | 0.1 µg/mL | 0% |
| CCCCCCCCCCCCCCCCOP(=O)(OC[C@H]1OC(O)[C@@H](O)[C@@H](O)[C@@H]1O)OC[C@H]1O[C@@H](n2cc(C)c(=O)[nH]c2=O)C[C@@H]1N=[N+]=[N-] | LAV-Bru |  | CEM | RT activity | 15 d | 0.2 µM | 91% |
| O=C(NCCc1ccccc1)Nc1nc(C(F)(F)F)cs1 |  |  | MT-4 | cytopathic effect / XTT |  | 100 µg/mL | 31–66% |
| N=C1Sc2ccccc2C2=NCCCN12 | RU132 |  | PBMC | β-galactosidase |  | 0.53 µM | 90% |
| O=C(C(=O)N1CCN(C(=O)c2cscn2)CC1)c1c[nH]c2cccc(F)c12 |  |  | HeLa + HELA CD4+/CCR5 | luciferase |  | 10 µM | >98% |
| O=C(NCCc1ccccc1)Nc1ccccc1 |  |  | MT-4 | cytopathic effect / XTT |  | 100 µg/mL | 0% |
| Cc1ccoc1C(=O)N1CCN(C(=O)C(=O)c2c[nH]c3cccc(F)c23)CC1 |  |  | HeLa + HELA CD4+/CCR5 | luciferase |  | 10 µM | >98% |
| Cc1cn([C@H]2C[C@H](N=[N+]=[N-])[C@@H](COP(=O)(O)OCCO[C@H]3O[C@H](CO)[C@@H](O)[C@H](O)[C@@H]3O)O2)c(=O)[nH]c1=O | LAV-Bru |  | CEM | RT activity | 15 d | 5 µM | 96% |
| O=C(C(=O)N1CCN(C(=O)c2ccc(Cl)o2)CC1)c1c[nH]c2c(F)ccc(F)c12 |  |  | HeLa + HELA CD4+/CCR5 | luciferase |  | 10 µM | >98% |
| C[C@H]1[C@H](O)[C@@H](C)/C=C/C=C/C=C/C=C/C=C/C=C/C=C/[C@H](O[C@@H]2O[C@H](C)[C@@H](O)[C@H](N)[C@@H]2O)C[C@@H]2O[C@](O)(C[C@@H](O)C[C@@H](O)CC[C@H](O)[C@@H](O)C[C@@H](O)CC(=O)O[C@H]1C)C[C@H](O)[C@H]2C(=O)O | RU132 CLADE G R5 (NSI) |  | PBMC | p24 / RT activity |  | 3.8 µM | 90% |
| CCCCCCCCCCCCCCc1sc(NC(=O)NCCc2ccccc2)nc1-c1ccc(Cl)cc1 |  |  | MT-4 | cytopathic effect / XTT |  | 10 µg/mL | 0% |
| Nc1ccc(C(=O)N2CCN(C(=O)C(=O)c3c[nH]c4cccc(F)c34)CC2)cc1 |  |  | HeLa + HELA CD4+/CCR5 | luciferase |  | 10 µM | >98% |
| Cc1nc(NC(=O)NCCc2ccccc2)sc1C |  |  | MT-4 | RT activity |  | 0.1 µg/mL | 1% |
| CC(C)[C@H](NC(=O)[C@H](CO)NC(=O)[C@@H](N)CSSCC(=O)O)C(=O)N[C@H](C(=O)N[C@@H](CSSCC(=O)O)C(=O)NCC(=O)O)[C@@H](C)O | IIIB |  | PBMC(PHA STIM.) + PBMC | p24 |  | 1.32 µM | 62% |
| CSc1ccc(C(=O)N2CCN(C(=O)C(=O)c3c[nH]c4cccc(Cl)c34)CC2)c(S)c1 |  |  | HeLa + HELA CD4+/CCR5 | luciferase |  | 10 µM | 93% |
| CC1(C)[C@@H](O[C@H]2O[C@H](C(=O)O)[C@@H](O)[C@H](O)[C@H]2O[C@@H]2O[C@H](C(=O)O)[C@@H](O)[C@H](O)[C@H]2O)CC[C@]2(C)[C@H]3C(=O)C=C4[C@@H]5C[C@@](C)(C(=O)O)CC[C@]5(C)CC[C@@]4(C)[C@]3(C)CC[C@@H]12 | IIIB |  | MT-4 | antigen |  | 60 µM | 6% |
| O=C(C(=O)N1CCN(C(=O)c2ccccn2)CC1)c1c[nH]c2cccc(F)c12 |  |  | HeLa + HELA CD4+/CCR5 | luciferase |  | 10 µM | >98% |
| CCCCCCCCCCCCCCCCOP(=O)(OCCO[C@@H]1O[C@H](CO)[C@@H](O)[C@H](O)[C@@H]1O)OC[C@H]1O[C@@H](n2cc(C)c(=O)[nH]c2=O)C[C@@H]1N=[N+]=[N-] | LAV-Bru |  | U-937 | RT activity | 14 d | 0.2 µM | 0% |
| O=C(C(=O)N1CCN(C(=O)c2ccccc2S)CC1)c1c[nH]c2cccc(F)c12 |  |  | HeLa + HELA CD4+/CCR5 | luciferase |  | 10 µM | >98% |
| O=C(NCCc1ccccc1)Nc1nc2ccc(F)cc2s1 |  |  | MT-4 | RT activity |  | 1 µg/mL | 51% |

Inhibition is in % at the dose shown (toxicity tests: loss of growth or viability). Two numbers with a dash give a range or band. Lines come from different laboratories, so protocols vary.